Each structure is given as a SMILES string.

The values below come from patent US9540343B2 (Gilead Sciences, Inc., priority 2011, dated 2017).

For this data set, the system named is MT-4 cells. As to conditions: uninfected MT-4 cells, same protocol as Test A, 5 days, CellTiter-Glo.

As to `NC(=O)c1cc(-c2cccnc2[C@H](Cc2cc(F)cc(F)c2)NC(=O)Cn2nc(C(F)(F)F)c3c2[C@@H]2C[C@@H]2C3)ccc1F` [Example 187, 5-(2-((S)-2-(3,5-difluorophenyl)-1-(2-((4aR,5aR)-3-(trifluoromethyl)-4,4-a,5,5a-tetrahydro-1H-cyclopropa[4,5]cyclopenta[1,2-c]pyrazol-1-yl)acetamido)ethyl)pyridin-3-yl)-2-fluorobenzamide], the CC50 – broadly, the concentration that lowers cell viability or growth by half – came to 18.9 µM.
Regarding `NC(=O)c1cc(-c2cccnc2[C@H](Cc2cc(F)cc(F)c2)NC(=O)Cn2nc(C(F)(F)F)c3c2C(F)(F)C2CC32)ccc1F` (single isomer, unassigned) [Example 450], the half-maximal cytotoxic concentration (CC50) worked out at 19.3 µM. This CC50 and that of the molecule before are within 1.5-fold of each other.
As for `NC(=O)c1cc(-c2cccnc2[C@H](Cc2cc(F)cc(F)c2)NC(=O)Cn2nc(C(F)F)c3c2C(F)(F)C2CC32)ccc1F` (single isomer, unassigned) [Example 216], the CC50 came to 18.7 µM.
